# Reference: ChEMBL document CHEMBL5537181 (J Med Chem, 2024)
# What was measured:
# [1] = Drug accumulation in Chronic constriction injury rat muscle tissue at 15 mg/kg,IM administration and measured for 4 to 48 hrs by HPLC analysis; conditions: in vivo
# [2] = Drug accumulation in Chronic constriction injury rat muscle tissue at 15 mg/kg,IM administration and measured for 8 hrs by FITC-labeled fluorescence imaging analysis; conditions: in vivo
compound,measurement,setting,value
CC[C@H](C)[C@H](NC(=O)[C@H](CCCNC(=N)N)NC(=O)[C@H](CCCNC(=N)N)NC(=O)[C@H](Cc1ccc(O)cc1)NC(=O)[C@H](CCCNC(=N)N)NC(=O)[C@H](CCCNC(=N)N)NC(=O)[C@H](CCCNC(=N)N)NC(=O)[C@H](CCCNC(=N)N)NC(=O)[C@H](CC(=O)O)NC(=O)[C@H](Cc1ccc(O)cc1)NC(=O)[C@@H]1CCCN1C(=O)[C@H](CO)NC(=O)[C@H](CCCNC(=N)N)NC(=O)[C@H](Cc1ccc(O)cc1)NC(=O)[C@H](CCCNC(=N)N)NC(=O)CN)C(=O)N[C@H](C(=O)N[C@@H](CC(=O)O)C(N)=O)[C@@H](C)O,Drug uptake,[1],Active
same,Drug uptake,[2],Active
